Measured values from several laboratories, pooled; numbers as filed in NIAID ChemDB.

Common to all: whole-cell or culture tests; organism: Candida tropicalis; read-out: MIC80

MIC50, MIC90 and the like: level of inhibition, or share of isolates inhibited. Rows are shuffled and stem from different studies. An empty or dashed field is not shown.

SMILES,read by,result
CN(CC(=O)Nc1cccc([N+](=O)[O-])c1)CC(O)(Cn1cncn1)c1ccc(F)cc1F,,>64 µg/mL
O=C(/C=C/c1ccccc1F)OC1CCN(CC(O)(Cn2cncn2)c2ccc(F)cc2F)CC1,broth dilution,0.129 µM
CCCCN(Cc1cn(Cc2ccc([N+](=O)[O-])cc2)nn1)CC(O)(Cn1cncn1)c1ccc(F)cc1F,,8 µg/mL
CN(CC(=O)Nc1ccc(F)c(Cl)c1)CC(O)(Cn1cncn1)c1ccc(F)cc1F,,1 µg/mL
Clc1ccc(COC(Cn2ccnc2)c2ccc(Cl)cc2Cl)c(Cl)c1,agar diffusion,0.0024 µg/mL
CCC(C)n1ncn(-c2ccc(N3CCN(c4ccc(OC[C@H]5CO[C@](Cn6cncn6)(c6ccc(Cl)cc6Cl)O5)cc4)CC3)cc2)c1=O,broth dilution,0.089 µM
CCCCN(Cc1cn(Cc2ccc(Cl)cc2Cl)nn1)CC(O)(Cn1cncn1)c1ccc(F)cc1F,,32 µg/mL
CCCCCCCCC(=O)OC1CCN(CC(O)(Cn2cncn2)c2ccc(F)cc2F)CC1,broth dilution,8.615 µM
CN(CC(=O)Nc1ccc(OC(F)(F)F)cc1)CC(O)(Cn1cncn1)c1ccc(F)cc1F,,16 µg/mL
O=C(O/N=C(\CCn1ccnc1)c1ccc(Cl)cc1)c1ccc(Cl)cc1,agar diffusion,0.6439 µg/mL
O=C(/C=C/c1ccc(Cl)cc1Cl)OC1CCN(CC(O)(Cn2cncn2)c2ccc(F)cc2F)CC1,broth dilution,0.466 µM
O=C(O/N=C(\CCn1ccnc1)c1ccccc1)c1ccccc1Cl,agar diffusion,0.3535 µg/mL
CCCCN(Cc1cn(Cc2ccc(Cl)cc2)nn1)CC(O)(Cn1cncn1)c1ccc(F)cc1F,,<0.125 µg/mL
C[C@@H](c1ncncc1F)[C@](O)(Cn1cncn1)c1ccc(F)cc1F,broth dilution,0.045 µM
CCCCN(Cc1cn(Cc2cccc(Br)c2)nn1)CC(O)(Cn1cncn1)c1ccc(F)cc1F,,32 µg/mL
COc1cc(C(=O)O/N=C(\CCn2ccnc2)c2ccccc2)cc(OC)c1OC,agar diffusion,0.3053 µg/mL
O=C(CCl)OC1CCN(CC(O)(Cn2cncn2)c2ccc(F)cc2F)CC1,broth dilution,2.415 µM
CN(CC(=O)Nc1ccc(F)cc1)CC(O)(Cn1cncn1)c1ccc(F)cc1F,,64 µg/mL
CCCCN(Cc1cn(Cc2ccc(F)cc2)nn1)CC(O)(Cn1cncn1)c1ccc(F)cc1F,,0.5 µg/mL
O/N=C(/CCn1ccnc1)c1ccc(Cl)cc1,agar diffusion,0.5019 µg/mL
O=C(Cc1ccccc1)OC1CCN(CC(O)(Cn2cncn2)c2ccc(F)cc2F)CC1,broth dilution,0.137 µM
CCCCN(Cc1cn(Cc2ccc(Br)cc2)nn1)CC(O)(Cn1cncn1)c1ccc(F)cc1F,,8 µg/mL

The last 3 rows once more:

{"SMILES": "O/N=C(/CCn1ccnc1)c1ccc(Cl)cc1", "read by": "agar diffusion", "result": "0.5019 µg/mL"}
{"SMILES": "O=C(Cc1ccccc1)OC1CCN(CC(O)(Cn2cncn2)c2ccc(F)cc2F)CC1", "read by": "broth dilution", "result": "0.137 µM"}
{"SMILES": "CCCCN(Cc1cn(Cc2ccc(Br)cc2)nn1)CC(O)(Cn1cncn1)c1ccc(F)cc1F", "result": "8 µg/mL"}